PubChem BioAssay AID624099 | ICCB-Longwood, 2012

- Screen: 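Host factors E2 relies on to silence an HPV18 LCR reporter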 (primary screen)
- System: human C33A cervical carcinoma cells (HPV-negative) stably expressing BPV1 E2 and an HPV18 LCR luciferase reporter
- Knock-down reagent: siRNA pool against human genes, 40 nM
- Duration: 72 h
- Measured: 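Per-well luciferase luminescence, z-scored on each plate against the plate mean and SD with control wells left out, then averaged across three replicate plates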
- Scale: mean z-score and z-score: higher = stronger reporter signal, weaker E2 silencing
- Call rule: 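Mean z ≥ 2 together with z ≥ 2 in two or more of the three replicates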
The deposit covers about 21,000 reagents; shown is a part drawn at random. Of all reagents, 497 (2.4%) were called active. 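Higher z means weaker E2 silencing; only reporter increases were scored, and knock-downs that hurt cell survival may mask genuine repressor factors.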 Reagent sequences are not shown.

target gene	mean z-score	z-score, replicate A	z-score, replicate B	z-score, replicate C	call
PCMT1	0.44	0.29	0.41	0.62	inactive
DPEP1	0.35	0.13	0.54	0.39	inactive
STK32B	1.38	1.44	1.16	1.54	inactive
ALX4	-0.4	-0.21	-0.46	-0.53	inactive
CHRNE	1.14	1.02	1.11	1.28	inactive
CX3CR1	1.43	1.63	1.23	1.44	inactive
ENY2	3.02	2.58	2.97	3.51	active
CCL28	1.06	0.99	1.14	1.04	inactive
LOC389667 (retired record)	-0.6	-0.27	-0.87	-0.68	inactive
CLEC12A-AS1	0.05	0.14	-0.13	0.16	inactive
RHOXF1	-0.97	-0.74	-0.86	-1.3	inactive
KRT33B	0.53	0.43	0.81	0.35	inactive
ARSK	-0.73	-0.24	-0.97	-0.98	inactive
LPO	1.15	1.59	0.76	1.11	inactive
MIB1	1.49	1.81	1.12	1.54	inactive
SYNGR4	0.68	1.25	0.31	0.48	inactive
TRAF4	1.57	1.64	1.34	1.71	inactive
CAMK2G	-0.47	-1.11	-0.11	-0.18	inactive
DPM2	-0.11	-0.05	0.04	-0.31	inactive
RAB31	-0.57	-0.54	-0.66	-0.51	inactive
SCOC	0.4	0.51	0.42	0.26	inactive
PDXP	-0.6	-0.84	-0.16	-0.8	inactive
DBF4	-0.19	-0.52	-0.15	0.1	inactive
NFS1	-0.48	-0.3	-0.58	-0.56	inactive
PRDM13	0.65	0.44	1.04	0.47	inactive
CHTF18	-0.83	-0.99	-0.95	-0.55	inactive
DGKZ	-0.4	-0.29	-0.52	-0.41	inactive
RRAD	-1.6	-1.53	-1.56	-1.71	inactive
CHD1L	1.04	0.9	1.36	0.84	inactive
BTBD9	-0.65	-0.56	-0.6	-0.79	inactive
CCNL1	0.12	0.07	0.2	0.08	inactive
CYSLTR1	-0.06	-0.05	-0.12	-0.01	inactive
LINC00303	0.52	0.46	0.57	0.53	inactive
TARBP2	-1.07	-1.08	-1.15	-0.98	inactive
THAP6	-0.42	-0.18	-0.52	-0.56	inactive
CNTROB	3.75	3.32	4.03	3.9	active
LOC728510 (retired record)	0.1	-0.11	0.03	0.38	inactive
CSMD2	-0.3	0.06	-0.55	-0.42	inactive
LOC388166 (retired record)	1.41	1.25		1.58	inactive
UFC1	-0.8	-0.1	-0.72	-1.56	inactive
ZNF100	0.63	0.69	0.81	0.38	inactive
ADA2	1.61	1.72	1.65	1.46	inactive
SAFB	-0.02	-0.45	0.25	0.14	inactive
OR4C13	0.99	0.82	1.15	1	inactive
SPAM1	0.42	0.28	0.35	0.64	inactive
PLAC1	1.51	1.65	1.65	1.22	inactive
CAMKMT	-1.22	-1.33	-1.3	-1.03	inactive
PFKFB3	-1.59	-1.9	-1.42	-1.46	inactive
IDH2	0.11	0.42	-0.18	0.1	inactive
DCAF7	-1.38	-1.43	-1.56	-1.15	inactive
ADAMTS4	1.24	1.01	1.64	1.06	inactive
CRYGN	1.23	0.84	1.51	1.34	inactive
OR2B2	-0.33	-0.24	-0.32	-0.44	inactive
WBP11	0.09	0.1	0.08	0.08	inactive
CSPG5	0.3	0.48	0.14	0.28	inactive
MAGEB5	0.17	0.23	0.49	-0.19	inactive
SLC25A29	-0.72	-0.56	-0.71	-0.89	inactive
